Results of unrelated studies side by side (data: NIAID ChemDB).

Common to all: growth or infection tests; agent: HIV-1; measure: EC50

Rows are shuffled and stem from different studies. ECn is the concentration giving n% inhibition of infection, replication or growth. Two numbers with a dash give a range or band. Blank or dashed fields: not listed here.

structure | changes | strain or isolate | cells | method | value
Cc1nnc(C(=O)N2CCC3(CC2)OCCCn2c3nc(C(=O)NCc3ccc(F)cc3-n3ncnc3C)c(O)c2=O)o1 | - | NL4-3 | MT-2 | luciferase / reporter gene | 0.01–0.1 µM
CCc1ncn(Nc2cccc(C)c2)c1-c1ccccc1 | - | NL4-3 | MT-4 | cytopathic effect / MTT | >27.87 µM
CC1(C)CC=C(c2cn(-c3nccc(C(=O)NC4CCC(N5CC6CCC(C5)O6)CC4)n3)c3ccc(F)c([C@H](OC(C)(C)C)C(=O)O)c23)CC1 | Q148H | NL4-3 | MT-4 | luminescence | 0.0039 µM
O=C(NCCCN1CCN(CCCNC(=O)Nc2ccc(Cl)cc2)CC1)Nc1ccc(Cl)cc1 | - | NL4-3 | SupT1 | luminescence | 11.98 µM
Cc1[nH]c(=S)n(Nc2cccc(Cl)c2)c1C(=O)O | - | NL4-3 | MT-4 | cytopathic effect / MTT | >266 µM
Cc1ccc(S(=O)(=O)N2CCC3(CC2)OCCn2c3nc(C(=O)NCc3ccc(F)cc3S(=O)(=O)N3CCOCC3)c(O)c2=O)cc1 | - | NL4-3 | MT-2 | luciferase / reporter gene | 0.001–0.01 µM
Cc1cc2c(cc1Cl)SC(C(=O)c1ccc(Cl)cc1)=NS2(=O)=O | - | - | CEM | cytopathic effect / XTT | >159 µM
Cc1cccc(Nn2cnc(C)c2-c2cccc(C#N)c2)c1 | - | IIIB | MT-4 | cytopathic effect / MTT | >44.7 µM
Cc1ccc(S(=O)(=O)N2CCC3(CC2)OCCn2c3nc(C(=O)NCc3ccc(F)cc3-n3cnc(C)n3)c(O)c2=O)cc1 | - | NL4-3 | MT-2 | luciferase / reporter gene | 0.001–0.01 µM
CS(=O)c1ccc(-c2nc(-c3ccc(F)cc3)c(-c3ccncc3)[nH]2)cc1 | - | pNL4-3 | Jurkat cells | p24 | 10 µM
Cc1cc(F)ccc1OCCN(C)c1ccc(-c2cnc(C)c([C@H](OC(C)(C)C)C(=O)O)c2N2CCC(C)(C)CC2)nc1 | - | NL4-3 | MT-2 | luminescence | 0.0013 µM
CN[C@H](C)C(=O)N[C@H]1CCSC2CC(C)(C)[C@@H](C(=O)N[C@@H](COCc3cn(COC[C@@H](NC(=O)[C@H]4N5C(=O)[C@@H](NC(=O)[C@@H](C)NC)CCSC5CC4(C)C)c4ccccc4)nn3)c3ccccc3)N2C1=O | - | - | Jurkat cells | fluorescence | 0.0959 µM
CC(C)CN(C[C@@H](O)[C@H](Cc1ccccc1)NC(=O)OC1COC2OCCC12)S(=O)(=O)c1ccc2nc[nH]c2c1 | - | LAI WT | MT-4 | cytopathic effect / MTT | 0.126 µM
Cc1ncnn1-c1cc(F)ccc1CNC(=O)c1nc2n(c(=O)c1O)CCOCC21CCN(S(=O)(=O)N(C)C)CC1 | - | NL4-3 | MT-2 | luciferase / reporter gene | 0.01–0.1 µM
CCN1c2ncc(CCOc3ccc(C(=O)O)c4c3CCCC4)cc2C(=O)N(C)c2ccc(F)nc21 | RT-K103N Y181C | - | C8166 | p24 | <0.1 µM
Cc1ncc(-c2ccc(OC3CCOCC3)cn2)c(N2CCC(C)(C)CC2)c1[C@H](OC(C)(C)C)C(=O)O | - | NL4-3 | MT-2 | luminescence | 0.0159 µM
Cc1cc2c(cc1Cl)SC(C(=O)c1ccc(Cl)c(Cl)c1)=NS2(=O)=O | - | - | CEM | cytopathic effect / XTT | >200 µM
Cc1ncc(-c2ccc(O[C@H](C)C3CCC3)nc2)c(N2CCC(C)(C)CC2)c1[C@H](OC(C)(C)C)C(=O)O | - | NL4-3 | MT-2 | luminescence | 0.0119 µM
CC(C)CN(C[C@@H](O)[C@H](Cc1ccccc1)NC(=O)O[C@H]1CCOC1)S(=O)(=O)c1ccc2nc(N)[nH]c2c1 | - | LAI WT | MT-4 | cytopathic effect / MTT | 1 µM
O=C(C1=NS(=O)(=O)c2ccc(Cl)cc2S1)c1ccc2ccccc2c1 | - | - | CEM | cytopathic effect / XTT | 54.5 µM
CN[C@@H](C)C(=O)N[C@H]1CCSC2CC(C)(C)[C@@H](C(=O)N[C@@H]3c4ccccc4C[C@@H]3OCCCCCCCCO[C@H]3Cc4ccccc4[C@H]3NC(=O)[C@@H]3N4C(=O)[C@H](NC(=O)[C@H](C)NC)CCSC4CC3(C)C)N2C1=O | - | - | Jurkat cells | fluorescence | 0.0116 µM
CC(C)CN(C[C@@H](O)[C@H](Cc1ccccc1)NC(=O)O[C@H]1CCOC1)S(=O)(=O)c1ccc2nc(NC(=O)NCCN(C)C)[nH]c2c1 | - | LAI WT | MT-4 | cytopathic effect / MTT | 0.794 µM
Cc1ncc(-c2cc(F)c(F)c(OC3CC(c4ccc(F)cc4)C3)c2)c(N2CCC(C)(C)CC2)c1[C@H](OC(C)(C)C)C(=O)O | - | NL4-3 | MT-2 | luminescence | 0.0215 µM
Cc1ncn(Nc2ccc(F)cc2)c1-c1ccccc1 | - | NL4-3 | MT-4 | cytopathic effect / MTT | >30.82 µM
CCN1c2ncc(CCOc3ccc4cc(CC(=O)O)ccc4c3C)cc2C(=O)N(C)c2cccnc21 | - | WT | C8166 | p24 | <0.1 µM
Cc1ccc(OCCNc2ccc(-c3cnc(C)c([C@H](OC(C)(C)C)C(=O)O)c3N3CCC(C)(C)CC3)cn2)cc1F | - | NL4-3 | MT-2 | luminescence | 0.0063 µM
Cc1ccc(-c2c([C@@H](OC(C)(C)C)C(=O)O)c(C)nc3c2ccn3Cc2ccc(F)cc2F)cc1 | - | - | MT-4 | luciferase | 36 µM
CN(C)c1ccc(Nc2c3ccc(NC(=O)CCN4CCCC4)cc3nc3cc(NC(=O)CCN4CCCC4)ccc23)cc1 | Persistently infected cells | IIIB | MT-4 | p24 / antigen | 5 µM
COc1ccc(OCCOc2ccc(-c3cnc(C)c([C@H](OC(C)(C)C)C(=O)O)c3N3CCC(C)(C)CC3)nc2)cc1 | - | NL4-3 | MT-2 | luminescence | 0.0007 µM
Cc1nc2ccccc2c(-c2cc(F)c3c(c2C)CCCO3)c1[C@H](OC(C)(C)C)C(=O)O | T124N/T125A | NL4-3 | MT-4 | luminescence | 0.039 µM
Cc1cc2c(cc1Cl)SC(C(=O)c1cccc([N+](=O)[O-])c1)=NS2(=O)=O | - | - | CEM | cytopathic effect / XTT | 77.5 µM
COC(=O)Nc1nc2ccc(S(=O)(=O)N(CC(C)C)C[C@@H](O)[C@H](Cc3ccccc3)NC(=O)COc3c(C)cc(CN)cc3C)cc2[nH]1 | - | LAI WT | MT-4 | cytopathic effect / MTT | 0.1 µM
CCN1c2ncc(CCOc3ccc(C(C)C(=O)O)c4ccccc34)cc2C(=O)N(C)c2cccnc21 | - | WT | C8166 | p24 | <0.1 µM
Cc1cc(C(O)CNC(C)CCn2cnc3c2c(=O)n(C)c(=O)n3C)ccc1O | - | NL4-3 | SupT1 | luminescence | 9.64 µM
CCN1c2ncc(CCOc3ccc4cc(CC(=O)NN)ccc4c3)cc2C(=O)N(C)c2cccnc21 | - | WT | C8166 | p24 | <0.1 µM
Cc1nc2c(ccn2Cc2cccc(F)c2F)c(-c2ccc3c(c2C)CCCO3)c1[C@H](OC(C)(C)C)C(=O)O | - | - | MT-4 | luciferase | 0.009 µM
CN[C@@H](C)C(=S)N[C@H]1CCSC2CC(C)(C)[C@@H](C(=O)Nc3ccc(Cc4ccc(NC(=O)[C@H]5N6C(=O)[C@@H](NC(=S)[C@H](C)NC)CCSC6CC5(C)C)cc4)cc3)N2C1=O | - | - | Jurkat cells | fluorescence | 0.5851 µM
Cc1ncnn1-c1cc(F)ccc1CNC(=O)c1nc2n(c(=O)c1O)CCOC21CCN(C(=O)OCc2ccccc2)C1 | - | NL4-3 | MT-2 | luciferase / reporter gene | 0.01–0.1 µM